The target of this experiment is α7 nAChR subtype (Rattus norvegicus, UniProt Q05941). The experiment is described as follows: Test A: 125I-α-Bungarotoxin (BTX) binding to rat hippocampal membranes (affinity at α7 nAChR subtype). The conditions noted are these: radioligand saturation curve, one site model (ENZFITTER).

Sequences of proteins named here, by UniProt entry; tags and fusion partners are left off. A change or cut given only in a name is not applied to a line headed by its entry.
UniProt Q05941: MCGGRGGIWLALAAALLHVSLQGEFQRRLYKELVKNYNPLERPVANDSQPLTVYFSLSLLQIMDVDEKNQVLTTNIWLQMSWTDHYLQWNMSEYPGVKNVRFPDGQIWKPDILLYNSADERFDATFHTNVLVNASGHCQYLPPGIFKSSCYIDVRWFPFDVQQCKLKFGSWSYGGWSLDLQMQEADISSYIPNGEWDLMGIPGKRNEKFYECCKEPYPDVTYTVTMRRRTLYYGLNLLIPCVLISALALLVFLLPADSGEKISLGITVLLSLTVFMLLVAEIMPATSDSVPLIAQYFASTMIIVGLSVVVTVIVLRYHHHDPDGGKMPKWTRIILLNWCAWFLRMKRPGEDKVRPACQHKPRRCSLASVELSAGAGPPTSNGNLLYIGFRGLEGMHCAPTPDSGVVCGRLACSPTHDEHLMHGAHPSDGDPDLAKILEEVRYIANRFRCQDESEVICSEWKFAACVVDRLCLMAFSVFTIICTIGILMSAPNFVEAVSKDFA

Substance ^125 I-α-Bungarotoxin displayed a Kd of 1.67 nM.

The term Kd denotes the free concentration of one partner at which half of the binding sites on the other are occupied at equilibrium, for simple one-to-one binding. A lower Kd goes with higher affinity.

These data come from patent US5902814A, “Spiro-Azabicyclic Compounds useful in therapy” (dated 1999).
